Anti-infective test results gathered from many reports (values: NIAID ChemDB through PubChem).

All rows: tests in culture; species: Aspergillus fumigatus; endpoint: MIC

An empty or dashed field is not shown. Lines come from different laboratories, so protocols vary.

{"structure": "CC1(C)O[C@H]2O[C@H](C3=NOC(CO)C3)[C@H](OCc3ccccc3)[C@H]2O1", "result": ">50 µg/mL"}
{"structure": "C[C@H]1[C@H](O)[C@@H](C)/C=C/C=C/C=C/C=C/C=C/C=C/C=C/[C@H](O[C@@H]2O[C@H](C)[C@@H](O)[C@H](N)[C@@H]2O)C[C@@H]2O[C@](O)(C[C@@H](O)C[C@@H](O)CC[C@H](O)[C@@H](O)C[C@@H](O)CC(=O)O[C@H]1C)C[C@H](O)[C@H]2C(=O)O", "strain": "MYA-32626", "read by": "broth dilution", "result": "0.25 µg/mL"}
{"structure": "Oc1ccc(C(=S)Nc2ccccc2Br)c(O)c1", "result": "125 µg/mL"}
{"structure": "CC(N1CCN(c2ccc(-n3cnnn3)cc2)C1=O)[C@@](O)(Cn1cncn1)c1ccc(F)cc1F", "strain": "IFO6344", "result": ">64 µg/mL"}
{"structure": "CCOC1CC([C@H]2O[C@@H]3OC(C)(C)O[C@@H]3[C@H]2OCc2ccccc2)=NO1", "result": ">50 µg/mL"}
{"structure": "C[C@@H]1CCC2(OC1)OC1CC3C4C[C@H](O)[C@H]5C[C@@H](O)CC[C@]5(C)C4CC(=O)[C@]3(C)C1[C@@H]2C", "strain": "ATCC 90906", "result": "20 µg/mL"}
{"structure": "CCCCCOc1ccc(-c2ccc(-c3ccc(C(=O)N[C@H]4C[C@@H](O)[C@@H](O)NC(=O)[C@@H]5[C@@H](O)[C@@H](C)CN5C(=O)[C@H]([C@H](C)O)NC(=O)[C@H]([C@H](O)[C@@H](O)c5ccc(O)cc5)NC(=O)[C@@H]5C[C@@H](O)CN5C(=O)[C@H]([C@H](C)O)NC4=O)cc3)cc2)cc1", "strain": "93-19", "result": ">50 µg/mL"}
{"structure": "COC(=O)N[C@H](C(=O)NN(CC[C@@]1(Cc2ccccc2)C(=O)N(C2c3ccccc3C[C@H]2O)C[C@@H]1O)Cc1ccc(Br)cc1)C(C)(C)C", "strain": "RCMB 002003", "read by": "agar", "result": "15.6 µg/mL"}
{"structure": "C=C1/C=C(\\C)[C@H](CC)OC(=O)[C@H](C)C(=O)C(O)(CO)C/C(OC)=C/[C@@H](C)C1", "strain": "MF5668", "result": ">200 µg/mL"}
{"structure": "Cc1onc(-c2ccccc2Cl)c1C=O", "strain": "Clinical isolates", "result": "50 µg/mL"}
{"structure": "OC(Cn1cncn1)(c1ccc(C(F)(F)F)cc1)C(F)(F)c1nc2ccccc2s1", "strain": "IFM 40808", "result": "4 µg/mL"}
{"structure": "C[C@@H](N1CCN(c2ccc(OC(F)(F)F)cc2)C1=O)C(O)(Cn1cncn1)c1ccc(F)cc1F", "strain": "TIMM1728", "result": "0.5 µg/mL"}
{"structure": "Cc1ccc([C@H]2SCC(=O)N2c2nc(N3CCOCC3)n[nH]2)cc1", "strain": "168.95", "read by": "broth dilution", "result": "100 µg/mL"}
{"structure": "C[C@@H](N1CCN(c2ccc(F)cc2)C1=O)C(O)(Cn1cncn1)c1ccc(F)cc1F", "strain": "IFO6344", "result": "8 µg/mL"}
{"structure": "O=Cc1cc(-c2ccc(F)cc2)on1", "strain": "Clinical isolates", "result": ">50 µg/mL"}
{"structure": "O=C(N/N=C/c1cc([N+](=O)[O-])ccc1O)c1ccc(I)cc1", "strain": "Strain 1", "result": "0.4 µg/mL"}
{"structure": "CCC(C)CCCCCCC1CC(=O)NCC(=O)N[C@@H](CCCN)C(=O)N[C@@H](C(C)CC)C(=O)N1", "strain": "IFM4942", "result": ">80 µg/mL"}
{"structure": "Oc1ccc(C(=S)Nc2ccccc2Cl)c(O)c1", "result": "62.5 µg/mL"}
{"structure": "COC(=O)N[C@H](C(=O)NN(CC[C@@]1(Cc2ccccc2)C(=O)N(C2c3ccccc3C[C@H]2O)C[C@@H]1O)Cc1ccc(-c2ccccn2)cc1)C(C)(C)C", "strain": "RCMB 002003", "read by": "agar", "result": "15.6 µg/mL"}
{"structure": "C=C1CCN(C(C)C(O)(Cn2cncn2)c2ccc(F)cc2F)CC1", "strain": "KA-01", "result": "0.2 µg/mL"}
{"structure": "CC(/C=C/C=C(\\C)C(O)C(C)C(=O)O[C@H]1C[C@@H](C)C=C2C=C[C@]3(C)O[C@@H](O)CC(=O)[C@]3(C)[C@H]21)=C\\C=C\\C(=O)O", "strain": "AC3447", "result": "50 µg/mL"}
{"structure": "C[C@@H](c1ncncc1F)[C@](O)(Cn1cncn1)c1ccc(F)cc1F", "strain": "EMC 1", "read by": "broth dilution", "result": "0.5 µg/mL"}
{"structure": "CN(Cc1cccc2ccsc12)/N=C\\c1ccc2ccccc2c1", "result": ">64 µg/mL"}
{"structure": "O=C(N=c1sc(-c2ccnc3nc4ccccc4n23)nn1-c1ccc(Cl)cc1)c1ccccc1", "strain": "002003", "result": "125 µg/mL"}
{"structure": "C[C@@H](N1CCN(c2ccc(-n3cnnn3)cc2)C1=O)[C@@](O)(Cn1cncn1)c1ccc(F)cc1F", "strain": "IFO6344", "result": ">64 µg/mL"}
{"structure": "COc1ccc(CC2CC([C@H]3O[C@@H]4OC(C)(C)O[C@@H]4[C@H]3OCc3ccccc3)=NO2)cc1", "result": ">50 µg/mL"}
{"structure": "O=Cc1cc(-c2ccccc2Br)no1", "strain": "Clinical isolates", "result": "50 µg/mL"}
{"structure": "Cc1nn(S(=O)(=O)c2ccccc2)c(C)c1C(F)(F)C(O)(Cn1cncn1)c1ccc(F)cc1F", "strain": "IFM 40808", "result": ">8 µg/mL"}
{"structure": "C[C@@H](N1CCN(c2ccc(OCC(F)(F)C(F)F)cc2)C1=O)C(O)(Cn1cncn1)c1ccc(F)cc1F", "strain": "IFO6344", "result": "0.5 µg/mL"}
{"structure": "COC(=O)N[C@H](C(=O)NN(CC[C@@]1(Cc2ccccc2)C(=O)N(C2c3ccccc3C[C@H]2O)C[C@H]1O)Cc1ccc(Br)cc1)C(C)(C)C", "strain": "RCMB 002003", "read by": "agar", "result": "15.6 µg/mL"}
{"structure": "Cc1ccc2nc(NC(=O)CSc3nnc(-c4ccc5ncccc5c4)o3)sc2c1", "read by": "agar", "result": "100 µg/mL"}
{"structure": "C[C@H]1[C@H](O)[C@@H](C)/C=C/C=C/C=C/C=C/C=C/C=C/C=C/[C@H](O[C@@H]2O[C@H](C)[C@@H](O)[C@H](N)[C@@H]2O)C[C@@H]2O[C@](O)(C[C@@H](O)C[C@@H](O)CC[C@H](O)[C@@H](O)C[C@@H](O)CC(=O)O[C@H]1C)C[C@H](O)[C@H]2C(=O)O", "strain": "MF5668", "result": "0.25 µg/mL"}
{"structure": "Cc1c(Cl)cccc1NC(=S)c1ccc(O)cc1O", "result": "62.5 µg/mL"}
{"structure": "CCCC[C@@H](C)/C=C(C)/C=C(\\C)C(=O)N/C(=C/[C@@](C)(O)/C=C/C=C/C=C/C(=O)NC1=C(O)CCC1=O)C(=O)[C@@H]1CO1", "strain": "3", "read by": "broth dilution", "result": "200 µM"}
{"structure": "CO[C@@H]1[C@H]2OC(C)(C)O[C@H]2O[C@@H]1C1=NOC(CO)C1", "result": ">50 µg/mL"}
{"structure": "Cc1ccc(/C=N\\N(C)Cc2cccc3ccsc23)cc1", "result": ">64 µg/mL"}
{"structure": "O=[N+]([O-])c1ccc(NC(=S)c2ccc(O)cc2O)c(O)c1", "result": "500 µg/mL"}
{"structure": "CCOC(=O)C1CC([C@H]2O[C@@H]3OC(C)(C)O[C@@H]3[C@H]3OC(C)(C)O[C@H]32)=NO1", "result": ">50 µg/mL"}
{"structure": "O=C(CSc1nnc(-c2ccc3ncccc3c2)o1)Nc1ccccc1", "read by": "agar", "result": "100 µg/mL"}
{"structure": "CC1ON=C([C@H]2O[C@@H]3OC(C)(C)O[C@@H]3[C@H]2OCc2ccccc2)C1C(=O)O", "result": ">50 µg/mL"}
{"structure": "N#Cc1ccc2nc(NC(=O)CSc3nnc(-c4ccc5ncccc5c4)o3)sc2c1", "read by": "agar", "result": "50 µg/mL"}
{"structure": "Oc1ccc(C(=S)Nc2ccc(Cl)cc2)c(O)c1", "result": "62.5 µg/mL"}
{"structure": "CN1CCN(c2n[nH]c(N3C(=O)CS[C@@H]3c3ccc4c(c3)OCO4)n2)CC1", "strain": "153.9", "read by": "broth dilution", "result": "50 µg/mL"}
{"structure": "N#Cc1ccc(NC(=O)CSc2nnc(-c3ccc4ncccc4c3)o2)cc1", "read by": "agar", "result": "100 µg/mL"}
{"structure": "CN(Cc1cccc2ccsc12)/N=C\\C#CC(C)(C)C", "result": ">64 µg/mL"}
{"structure": "CCCCCCCCCCCC[n+]1cccc2ccccc21", "strain": "231", "read by": "broth dilution", "conditions": "48 h", "result": "0.125 µg/mL"}
{"structure": "Cc1ccc(C(C)C)cc1O", "strain": "F17", "result": "0.16 µg/mL"}
{"structure": "CC(=O)c1cn([C@@H]2O[C@H]([C@H](NC(=O)[C@@H](N)[C@H](C)[C@H](O)c3ccc(O)cn3)C(=O)O)[C@@H](O)[C@H]2O)c(=O)[nH]1", "strain": "FP1305", "read by": "broth dilution", "result": ">50 µg/mL"}
{"structure": "COc1ccc(-n2nc(-c3ccn[nH]3)sc2=NC(=O)c2ccccc2)cc1", "strain": "002003", "result": "14.1 µg/mL"}
{"structure": "O=C(CSc1nnc(-c2ccc3ncccc3c2)o1)Nc1ccc(F)cc1", "read by": "agar", "result": "50 µg/mL"}
{"structure": "COc1cc(O)c2c(c1)C(=O)c1c(cc3c(c1O)-c1c(cc(C)c(C(=O)NCC(=O)O)c1O)[C@H](O[C@@H]1O[C@H](C)[C@H](N)[C@H](O[C@@H]4OC[C@@H](O)[C@H](O)[C@H]4O)[C@H]1O)[C@H]3O)C2=O", "strain": "IAM2530", "result": "1.6 µg/mL"}
{"structure": "CO[C@@H]1[C@H]2OC(C)(C)O[C@H]2O[C@@H]1C1=NOC(C#N)C1", "result": ">50 µg/mL"}
{"structure": "OC(Cn1cncn1)(c1ccc(F)cc1F)C(F)(F)c1nc2ccccc2o1", "strain": "IFM 40808", "result": "8 µg/mL"}
{"structure": "CCC(C)CCCCCCCCC1CC(=O)NCC(=O)N[C@@H](CCCN)C(=O)N[C@@H](C(C)C)C(=O)N1", "strain": "TIMM0063", "result": ">80 µg/mL"}
{"structure": "CC(N1CCCCC1)C(O)(Cn1cncn1)c1ccc(F)cc1F", "strain": "KA-01", "result": "1.56 µg/mL"}
{"structure": "COc1ccc([C@H]2SCC(=O)N2c2nc(N3CCOCC3)n[nH]2)cc1OC", "strain": "168.95", "read by": "broth dilution", "result": "100 µg/mL"}
{"structure": "OC(Cn1cncn1)(c1ccc(F)cc1F)C(F)(F)c1ccccn1", "strain": "IFM 40808", "result": "1 µg/mL"}
{"structure": "O=C(N=c1sc(-c2ccnc3ncnn23)nn1-c1ccc(Cl)cc1)c1ccccc1", "strain": "002003", "result": "31.3 µg/mL"}
{"structure": "COc1cc(/C=N\\N(C)Cc2cccc3ccccc23)ccc1O", "result": ">64 µg/mL"}
{"structure": "COC(=O)N[C@H](C(=O)NN(CCC[C@@]1(Cc2ccccc2)C(=O)N(C2c3ccccc3C[C@H]2O)C[C@H]1O)Cc1ccc(-c2cccnc2)cc1)C(C)(C)C", "strain": "RCMB 002003", "read by": "agar", "result": "15.6 µg/mL"}
{"structure": "Cc1ccccc1/C=N\\N(C)Cc1cccc2ccccc12", "result": ">64 µg/mL"}
{"structure": "OC(Cn1cncn1)(c1ccc(F)cc1F)C(F)(F)c1ncccn1", "strain": "IFM 40808", "result": ">8 µg/mL"}
{"structure": "Cc1onc(-c2cccc(Cl)c2)c1C=O", "strain": "Clinical isolates", "result": "12.5 µg/mL"}
{"structure": "C[C@@H](N1CCN(c2ccc(OC(F)(F)C(F)F)cc2)C1=O)C(O)(Cn1cncn1)c1ccccc1F", "strain": "437", "result": "0.5 µg/mL"}
{"structure": "Cc1ccc([C@H]2SC(C)C(=O)N2c2nc(N3CCN(C)CC3)n[nH]2)cc1", "strain": "168.95", "read by": "broth dilution", "result": "10 µg/mL"}
{"structure": "O=Cc1cc(-c2ccc(Cl)cc2Cl)on1", "strain": "Clinical isolates", "result": "50 µg/mL"}
{"structure": "O=C(CSc1nnc(-c2ccc3ncccc3c2)o1)Nc1nc2ccc(I)cc2s1", "read by": "agar", "result": "100 µg/mL"}
{"structure": "CCCCC/C=C/C=N\\N(C)Cc1cccc2ccccc12", "result": ">64 µg/mL"}
{"structure": "N#Cc1ccc(NC(=S)c2ccc(O)cc2O)cc1", "result": ">250 µg/mL"}
{"structure": "CC1(C)O[C@H]2[C@@H](O1)[C@@H](C1=NOC(CO)C1)O[C@@H]1OC(C)(C)O[C@@H]12", "result": ">50 µg/mL"}
{"structure": "COC(=O)N[C@H](C(=O)NN(CC[C@@]1(Cc2ccccc2)C(=O)N(C2c3ccccc3C[C@H]2O)C[C@H]1O)Cc1ccc(-c2ccccn2)cc1)C(C)(C)C", "strain": "RCMB 002003", "read by": "agar", "result": "7.8 µg/mL"}
{"structure": "Oc1ccc(C(=S)Nc2ccc(F)c(Cl)c2)c(O)c1", "result": "62.5 µg/mL"}

11 of the rows above, restated:

structure	strain	read by	conditions	result
Oc1ccc(C(=S)Nc2ccccc2Br)c(O)c1				125 µg/mL
CC1(C)O[C@H]2O[C@H](C3=NOC(CO)C3)[C@H](OCc3ccccc3)[C@H]2O1				>50 µg/mL
C[C@@H]1CCC2(OC1)OC1CC3C4C[C@H](O)[C@H]5C[C@@H](O)CC[C@]5(C)C4CC(=O)[C@]3(C)C1[C@@H]2C	ATCC 90906			20 µg/mL
OC(Cn1cncn1)(c1ccc(F)cc1F)C(F)(F)c1nc2ccccc2o1	IFM 40808			8 µg/mL
CCCCCCCCCCCC[n+]1cccc2ccccc21	231	broth dilution	48 h	0.125 µg/mL
CN(Cc1cccc2ccsc12)/N=C\C#CC(C)(C)C				>64 µg/mL
O=C(CSc1nnc(-c2ccc3ncccc3c2)o1)Nc1ccc(F)cc1		agar		50 µg/mL
CCC(C)CCCCCCC1CC(=O)NCC(=O)N[C@@H](CCCN)C(=O)N[C@@H](C(C)CC)C(=O)N1	IFM4942			>80 µg/mL
C[C@@H](N1CCN(c2ccc(F)cc2)C1=O)C(O)(Cn1cncn1)c1ccc(F)cc1F	IFO6344			8 µg/mL
Oc1ccc(C(=S)Nc2ccccc2Cl)c(O)c1				62.5 µg/mL
C=C1/C=C(\C)[C@H](CC)OC(=O)[C@H](C)C(=O)C(O)(CO)C/C(OC)=C/[C@@H](C)C1	MF5668			>200 µg/mL